The values that follow come from patent publication US20090281028A1.

Test [1] deals with human Kv1.3 channel (human), P22001. Nature of the test: cell-based or functional assay.
Test [2] deals with T1, human Kv1.1 channel (human), Q09470.
T1 chain: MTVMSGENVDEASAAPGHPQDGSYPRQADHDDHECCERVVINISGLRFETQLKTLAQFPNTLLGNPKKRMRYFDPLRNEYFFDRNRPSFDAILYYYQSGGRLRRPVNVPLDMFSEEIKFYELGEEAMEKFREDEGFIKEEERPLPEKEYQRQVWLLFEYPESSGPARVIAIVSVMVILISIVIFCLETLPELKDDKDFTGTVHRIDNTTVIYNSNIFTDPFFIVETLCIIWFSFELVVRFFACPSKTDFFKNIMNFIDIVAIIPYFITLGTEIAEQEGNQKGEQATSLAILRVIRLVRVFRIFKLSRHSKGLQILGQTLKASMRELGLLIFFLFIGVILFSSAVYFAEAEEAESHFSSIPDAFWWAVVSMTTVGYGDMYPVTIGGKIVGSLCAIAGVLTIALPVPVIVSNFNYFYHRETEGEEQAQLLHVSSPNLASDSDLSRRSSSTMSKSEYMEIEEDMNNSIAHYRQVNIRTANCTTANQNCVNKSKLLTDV
Nature of the test: cell-based or functional assay.

Regarding GVIINVKCKISPQCLKPCKDAGIRFGKCINGKCACTPK (modifications not checked) [OSK1 analog Pro-12, Lys-16, Asp-20, Ile-23, Ile-29, Ala-34], in test [1], the Analog IC50 Divided by Ala-1 IC50, IFNg came out at 4.29 fold and the Analog IC50 Divided by Ala-1 IC50, IL2 amounted to 4.21 fold.

On to GVIINVKCKISRACLEPCKKAGMRFGKCMNGKCHCTPK (modifications not checked) [OSK1 analog Ala-13], for which, in test [1], the Analog IC50 Divided by Ala-1 IC50, IFNg was 1.11 fold and the Analog IC50 Divided by Ala-1 IC50, IL2 came to 1.21 fold.

In test [1], GVIINVKCKISAQCLEPCKKAGMRFGKCMNGKCHCTPK (modifications not checked) [OSK1 analog Ala-12] came in with an Analog IC50 Divided by Ala-1 IC50, IFNg of 1.3 fold and an Analog IC50 Divided by Ala-1 IC50, IL2 of 1.01 fold.

In test [1], GVIINVKCKISRQCAEPCKKAGMRFGKCMNGKCHCTPK (modifications not checked) [OSK1 analog Ala-15] had an Analog IC50 Divided by Ala-1 IC50, IFNg of 0.9 fold; an Analog IC50 Divided by Ala-1 IC50, IL2 of 0.88 fold; an Average IC50 (nM) IL-2, thapsigargin-induced, 50% human whole blood of 0.107 nM.

GVAINVKCKISRQCLEPCKKAGMRFGKCMNGKCHCTPK (modifications not checked) [OSK1 I3A] returned a Kv1.1 IC50 (IonWorks electrophysiology) in test [2] of 10.6 pM. In test [1], this molecule showed a Kv1.3 IC50 (IonWorks electrophysiology) of 96.6 pM, a WB/IFNg IC50 (human whole blood) of 99.2 pM and a WB/IL-2 IC50 (human whole blood) of 88.3 pM.

On to GVIINVKCKISRQCLEACKKAGMRFGKCMNGKCHCTPK (modifications not checked) [OSK1 analog Ala-17], for which, in test [1], the Analog IC50 Divided by Ala-1 IC50, IFNg was found to be 1.45 fold and the Analog IC50 Divided by Ala-1 IC50, IL2 worked out at 1.42 fold.

In test [2], GVIANVKCKISRQCLEPCKKAGMRFGKCMNGKCHCTPK (modifications not checked) [OSK1 I4A] returned a Kv1.1 IC50 (IonWorks electrophysiology) of 16.9 pM. Besides, in test [1], the Kv1.3 IC50 (IonWorks electrophysiology) is 195 pM, the WB/IFNg IC50 (human whole blood) was 87.3 pM and the WB/IL-2 IC50 (human whole blood) was 111 pM.

In test [1], GVIINVKCKISRQCLEPCKKAGMRFGKCMNGACHCTPK (modifications not checked) [OSK1 K32A] yielded a WB/IFNg IC50 (human whole blood) of 34 pM and a WB/IL-2 IC50 (human whole blood) of 41.3 pM.

As to GVIINVKCKISRQCLEPCKKAGMRFGKCMNGKCHCAPK (modifications not checked) [OSK1 T36A], in test [1], the WB/IFNg IC50 (human whole blood) stood at 724 pM and the WB/IL-2 IC50 (human whole blood) came out at 728 pM.

In test [1], GVIINVKCKISRQCLEPCKKAGMRFGKCMNGKCHCTAK (modifications not checked) [OSK1 P37A] registered a WB/IFNg IC50 (human whole blood) of 850 pM and a WB/IL-2 IC50 (human whole blood) of 956 pM.

In test [1], GVIINVKCAISRQCLEPCKKAGMRFGKCMNGKCHCTPK (modifications not checked) [OSK1 analog Ala-9] had an Analog IC50 Divided by Ala-1 IC50, IFNg of 0.6 fold and an Analog IC50 Divided by Ala-1 IC50, IL2 of 0.65 fold.

Turning to GVIINVKCKISRQCLEPCKKAAMRFGKCMNGKCHCTPK (modifications not checked) [OSK1 analog Ala-22], in test [1], the Analog IC50 Divided by Ala-1 IC50, IFNg was 59.3 fold; the Analog IC50 Divided by Ala-1 IC50, IL2 turned out to be 58.1 fold; the Average IC50 (nM) IFNg, thapsigargin-induced, 50% human whole blood turned out to be 7.09 nM; the Average IC50 (nM) IL-2, thapsigargin-induced, 50% human whole blood is 7.09 nM.

As for GVIANVKCKISRQCLEPCKKAGMRFGKCMNGKCHCTPK (modifications not checked) [OSK1 analog Ala-4], in test [1], the Analog IC50 Divided by Ala-1 IC50, IFNg turned out to be 0.73 fold and the Analog IC50 Divided by Ala-1 IC50, IL2 was found to be 0.91 fold.

In test [1], GVIINVKCKISRQCLEPCKAAGMRFGKCMNGKCHCTPK (modifications not checked) [OSK1 analog Ala-20] registered an Analog IC50 Divided by Ala-1 IC50, IFNg of 3.17 fold and an Analog IC50 Divided by Ala-1 IC50, IL2 of 3.11 fold.

GAIINVKCKISRQCLEPCKKAGMRFGKCMNGKCHCTPK (modifications not checked) [OSK1 V2A] showed a Kv1.1 IC50 (IonWorks electrophysiology) in test [2] of 9.94 pM. In test [1], this molecule had a Kv1.3 IC50 (IonWorks electrophysiology) of 81.8 pM, a WB/IFNg IC50 (human whole blood) of 104 pM and a WB/IL-2 IC50 (human whole blood) of 88.4 pM.

In test [1], GVIINVKCKISRQCLEPCKKAGMRFGKCMNGKCHCTPA (modifications not checked) [OSK1 K38A] gave a WB/IFNg IC50 (human whole blood) of 343 pM and a WB/IL-2 IC50 (human whole blood) of 221 pM.

In test [1], GVIINVKCKISRQCLEPCAKAGMRFGKCMNGKCHCTPK (modifications not checked) [OSK1 analog Ala-19] came in with an Analog IC50 Divided by Ala-1 IC50, IFNg of 1.36 fold and an Analog IC50 Divided by Ala-1 IC50, IL2 of 1.33 fold.

Take GVIINVKCKISRQCLAPCKKAGMRFGKCMNGKCHCTPK (modifications not checked) [OSK1 analog Ala-16]: in test [1], the Analog IC50 Divided by Ala-1 IC50, IFNg came to 0.84 fold; the Analog IC50 Divided by Ala-1 IC50, IL2 was 0.83 fold; the Average IC50 (nM) IFNg, thapsigargin-induced, 50% human whole blood was determined as 0.101 nM; the Average IC50 (nM) IL-2, thapsigargin-induced, 50% human whole blood worked out at 0.101 nM.

As for GVIINVKCKISRQCLEPCKKAGMRFGKCANGKCHCTPK (modifications not checked) [OSK1 analog Ala-29], in test [1], the Analog IC50 Divided by Ala-1 IC50, IFNg stood at 2.44 fold and the Analog IC50 Divided by Ala-1 IC50, IL2 amounted to 3.66 fold.

In test [1], GVIINAKCKISRQCLEPCKKAGMRFGKCMNGKCHCTPK (modifications not checked) [OSK1 analog Ala-6] registered an Analog IC50 Divided by Ala-1 IC50, IFNg of 0.67 fold; an Analog IC50 Divided by Ala-1 IC50, IL2 of 0.6 fold; an Average IC50 (nM) IFNg, thapsigargin-induced, 50% human whole blood of 0.0805 nM.

In test [1], GVIIAVKCKISRQCLEPCKKAGMRFGKCMNGKCHCTPK (modifications not checked) [OSK1 analog Ala-5] had an Analog IC50 Divided by Ala-1 IC50, IFNg of 0.56 fold; an Analog IC50 Divided by Ala-1 IC50, IL2 of 0.56 fold; an Average IC50 (nM) IFNg, thapsigargin-induced, 50% human whole blood of 0.067 nM.

Take GAIINVKCKISRQCLEPCKKAGMRFGKCMNGKCHCTPK (modifications not checked) [OSK1 analog Ala-2]: in test [1], the Analog IC50 Divided by Ala-1 IC50, IFNg was 0.87 fold; the Analog IC50 Divided by Ala-1 IC50, IL2 was 0.72 fold; the Average IC50 (nM) IFNg, thapsigargin-induced, 50% human whole blood was 0.103 nM.

For GVIINVKCKISRQCLEPCKKAGMRFGKCMEGKCHCTPK (modifications not checked) [OSK1 N30E], in test [1], the WB/IFNg IC50 (human whole blood) amounted to 24400 pM and the WB/IL-2 IC50 (human whole blood) worked out at 14000 pM.

On to GVIINVACKISRQCLEPCKKAGMRFGKCMNGKCHCTPK (modifications not checked) [OSK1 analog Ala-7], for which, in test [1], the Analog IC50 Divided by Ala-1 IC50, IFNg turned out to be 0.49 fold and the Analog IC50 Divided by Ala-1 IC50, IL2 stood at 0.55 fold.

Take AVIINVKCKISRQCLEPCKKAGMRFGKCMNGKCHCTPK (modifications not checked) [OSK1 G1A]: the Kv1.1 IC50 (IonWorks electrophysiology) in test [2] was 13.9 pM. In test [1], this molecule displayed a WB/IFNg IC50 (human whole blood) of 119 pM and a WB/IL-2 IC50 (human whole blood) of 122 pM.

In test [1], GVIINVKCKASRQCLEPCKKAGMRFGKCMNGKCHCTPK (modifications not checked) [OSK1 analog Ala-10] registered an Analog IC50 Divided by Ala-1 IC50, IFNg of 0.25 fold; an Analog IC50 Divided by Ala-1 IC50, IL2 of 0.41 fold; an Average IC50 (nM) IL-2, thapsigargin-induced, 50% human whole blood of 0.05 nM.

Consider GVIINVKCKISRQCLEPCKKAGMRFGKCMAGKCHCTPK (modifications not checked) [OSK1 analog Ala-30], for which, in test [1], the Analog IC50 Divided by Ala-1 IC50, IFNg is 5.33 fold and the Analog IC50 Divided by Ala-1 IC50, IL2 stood at 7.96 fold.

GVIINVKCKISRQCLEPCKKAGMRAGKCMNGKCHCTPK (modifications not checked) [OSK1 analog Ala-25]: in test [1], the Analog IC50 Divided by Ala-1 IC50, IFNg came to 25.8 fold; the Analog IC50 Divided by Ala-1 IC50, IL2 is 25.2 fold; the Average IC50 (nM) IFNg, thapsigargin-induced, 50% human whole blood is 3.08 nM; the Average IC50 (nM) IL-2, thapsigargin-induced, 50% human whole blood was 3.08 nM.

On to GVIINVKCKISRQCLEPCKKAGMRFGKCMNGKCACTPK (modifications not checked) [OSK1 analog Ala-34], for which, in test [1], the Analog IC50 Divided by Ala-1 IC50, IFNg came out at 0.48 fold and the Analog IC50 Divided by Ala-1 IC50, IL2 turned out to be 0.59 fold.

For the molecule GVIINVKCKISRQCLEPCKKAGARFGKCMNGKCHCTPK (modifications not checked) [OSK1 analog Ala-23], in test [1], the Analog IC50 Divided by Ala-1 IC50, IFNg stood at 2.3 fold and the Analog IC50 Divided by Ala-1 IC50, IL2 was determined as 2.25 fold.

Turning to AVIINVKCKISRQCLEPCKKAGMRFGKCMNGKCHCTPK (modifications not checked) [OSK1 analog Ala-1], in test [1], the Analog IC50 Divided by Ala-1 IC50, IFNg came out at 1 fold and the Analog IC50 Divided by Ala-1 IC50, IL2 was 1 fold.

Consider GVAINVKCKISRQCLEPCKKAGMRFGKCMNGKCHCTPK (modifications not checked) [OSK1 analog Ala-3], for which, in test [1], the Analog IC50 Divided by Ala-1 IC50, IFNg amounted to 0.83 fold and the Analog IC50 Divided by Ala-1 IC50, IL2 came to 0.72 fold.

With GVIINVKCKISRQCLEPCKKAGMRFGACMNGKCHCTPK (modifications not checked) [OSK1 analog Ala-27], in test [1], the Analog IC50 Divided by Ala-1 IC50, IFNg stood at 13.2 fold and the Analog IC50 Divided by Ala-1 IC50, IL2 is 28.3 fold.

In test [1], GVIINVKCKISRQCLEPCKKAGMEFGKCMNGKCHCTPK (modifications not checked) [OSK1 R24E] gave a WB/IFNg IC50 (human whole blood) of 9540 pM and a WB/IL-2 IC50 (human whole blood) of 7160 pM.
